Results of unrelated studies side by side (data: NIAID ChemDB).

Common to all: whole-cell or culture tests; agent: HIV-1; read-out: fold resistance

Neighbouring rows are from separate reports. Fold resistance has wild type as its base. An empty or dashed field is not shown.

Cc1cn([C@H]2C[C@H](N=[N+]=[N-])[C@@H](CO)O2)c(=O)[nH]c1=O ; mutations: RT-K103N Y181C ; strain or isolate: A17 ; cells: MT-4 ; read by: cytopathic effect / MTT ; value: 0.4
Nc1nc2c(ncn2[C@H]2CO[C@@H](CO)O2)c(=O)[nH]1 ; mutations: RT-K65R ; cells: MT-2 ; value: 5.06
Cc1cn([C@H]2C[C@H](N=[N+]=[N-])[C@@H](CO)O2)c(=O)[nH]c1=O ; mutations: RT-M184V ; strain or isolate: RT-M184V XM-M184V ; cells: PBMC ; read by: p24 ; value: 0.2
Cc1cn([C@@H]2O[C@H](CO[Si](C)(C)C(C)(C)C)C3(OS(=O)(=O)C=C3N)[C@H]2O[Si](C)(C)C(C)(C)C)c(=O)n(C)c1=O ; mutations: RT-M184V ; strain or isolate: IIIB ; cells: CEM ; read by: p24 ; value: 0.792
C[C@H](Cn1cnc2c(N)ncnc21)OCP(=O)(O)O ; mutations: RT-V118I M184V ; strain or isolate: Recombinant ; cells: HeLa ; read by: luciferase ; value: 1
C[C@@H](CNC(=S)Nc1ccc(Cl)cn1)c1ccccc1 ; mutations: RT-Y181C ; strain or isolate: NNRTI-resistant (RT Y181C) A17 ; cells: PBMC ; read by: p24 ; value: >260
Cc1ccc(NC(=O)CSc2nnc(C)n2-c2ccccc2)c(Br)c1 ; mutations: RT-Y188L ; strain or isolate: NL4-3 ; cells: HeLa + HeLa-JC53 ; read by: luciferase ; value: >100
Cc1ccnc2c1NC(=O)c1cccnc1N2C1CC1 ; mutations: RT-V108I ; strain or isolate: Thiazolobenzimidazole-resistant (RT V108I) ; cells: CEM + CEM-SS ; read by: cytopathic effect / XTT ; value: 30
CC(C)=CCN1Cc2cc(Cl)cc3[nH]c(=S)n(c23)C[C@@H]1C ; mutations: RT-C181I ; strain or isolate: IIIB ; cells: CEM ; read by: syncytia ; value: 250
Cc1occc1C(=S)Nc1ccc(Cl)c(/C=N/OC(C)(C)C)c1 ; mutations: RT-Y181C ; strain or isolate: UC781-R (RT-Y181C) ; cells: CEM + CEM-SS ; read by: cytopathic effect / XTT ; value: 4.5
CC(=O)Oc1ccc(/C=C/C(=O)O[C@H](C(=O)O)[C@H](OC(=O)/C=C/c2ccc(OC(C)=O)c(OC(C)=O)c2)C(=O)O)cc1OC(C)=O ; mutations: AMD2763-resistant ; strain or isolate: NL4-3 ; cells: MT-4 ; value: >11.9
Cc1cn([C@H]2C[C@H](N=[N+]=[N-])[C@@H](CO)O2)c(=O)[nH]c1=O ; mutations: RT-V108I ; strain or isolate: NL4-3 ; cells: CEM + CEM-SS ; read by: XTT ; value: 8
CC(C)(C)NC(=O)[C@@H]1C[C@@H]2CCCC[C@@H]2CN1C[C@@H](O)[C@H](Cc1ccccc1)NC(=O)[C@H](CC(N)=O)NC(=O)c1ccc2ccccc2n1 ; mutations: MDR ; strain or isolate: JSL ; cells: PBMC ; read by: p24 ; value: 19
CC(C)Nc1cccnc1N1CCN(C(=O)c2cc3cc(NS(C)(=O)=O)ccc3[nH]2)CC1 ; mutations: RT-K100I ; cells: MT-4 ; read by: cytopathic effect / MTT ; value: 39.7
O=C1N(Cc2ccc(CO)cc2)[C@H](COc2ccccc2)[C@H](O)[C@@H](O)[C@@H](COc2ccccc2)N1Cc1ccc(CO)cc1 ; mutations: PR-G48V L90M ; strain or isolate: IIIB ; cells: MT-4 ; read by: cytopathic effect / XTT ; value: 0.186
Cc1ccc(-n2c(C)nnc2SCC(=O)Nc2ccc(S(N)(=O)=O)cc2Cl)c2ccccc12 ; mutations: RT-Y188L ; strain or isolate: NL4-3 ; cells: HeLa + HeLa-JC53 ; read by: luciferase ; value: 100
N#Cc1cc2[nH]c3ccccc3c2n(-c2ccc([N+](=O)[O-])cc2)c1=O ; mutations: RT-M41L S68N G112S M184V ; strain or isolate: Recombinant ; cells: HeLa ; read by: luciferase ; value: 10.3
C[C@H](CNC(=S)Nc1ccc(Cl)cn1)c1ccccc1 ; mutations: RT-Y181C ; strain or isolate: NNRTI-resistant (RT Y181C) A17 ; cells: PBMC ; read by: p24 ; value: 14
O=C(NCc1ccc(F)cc1)c1nc(N2CCCCS2(=O)=O)c2cccnc2c1O ; mutations: INTG-Q148K ; value: 21
CC(C)=CCOc1cc(NC(=S)c2ccoc2C)ccc1Cl ; mutations: RT-L100I ; strain or isolate: Dihydrocostatolide-resistant (RT-L100I) ; cells: CEM + CEM-SS ; read by: XTT ; value: 60
O=c1[nH]cnc2c1ncn2[C@H]1CC[C@@H](CO)O1 ; mutations: RT-T69SSS L210W T215Y ; strain or isolate: XM-T69SSS ; cells: PBMC ; read by: p24 ; value: 1.3
Cc1cn([C@@H]2O[C@H](CO[Si](C)(C)C(C)(C)C)C3(OS(=O)(=O)C=C3N)[C@H]2O[Si](C)(C)C(C)(C)C)c(=O)n(C)c1=O ; mutations: RT-E138K ; strain or isolate: IIIB ; cells: CEM ; read by: syncytia ; value: >1500
Cc1occc1C(=S)Nc1ccc(Cl)c(/C=N/OC(C)(C)C)c1 ; mutations: RT-M184V ; strain or isolate: IIIB ; cells: CEM ; read by: p24 ; value: 0.14
Cc1cccc(NC(=S)NC[C@H](C)c2ccccc2)n1 ; mutations: RT-Y181C K103N ; strain or isolate: NNRTI-resistant (RT Y181C K103N) A17V ; cells: PBMC ; read by: p24 ; value: 29.75
Cc1cn([C@H]2C[C@H](N=[N+]=[N-])[C@@H](CO)O2)c(=O)[nH]c1=O ; mutations: RT-P157S ; cells: CD4+HELA + HeLa ; read by: p24 ; value: 0.375
COc1ccc2c(c1)N(C(=O)OC(C)C)[C@@H](CSC)C(=S)N2 ; mutations: RT-M184I ; strain or isolate: IIIB ; cells: CEM ; read by: p24 ; value: 1
O=c1[nH]cnc2c1ncn2[C@H]1CC[C@@H](CO)O1 ; mutations: 1 (Δ.67+T69G+K103N) ; strain or isolate: RT Δ.67 T69G K103N ; cells: MT-2 ; read by: p24 ; value: 1.6
Cc1ccnc2c1NC(=O)c1cccnc1N2C1CC1 ; mutations: RT-E138K ; strain or isolate: IIIB ; cells: CEM ; read by: syncytia ; value: 0.667
CC(C)=CCN1Cc2cccc3[nH]c(=S)n(c23)C[C@@H]1C ; mutations: RT-Y181C ; strain or isolate: N119 nevirapine-resistant (RT Y181C) ; cells: MT-2 ; read by: cytopathic effect / MTT ; value: 385
CC(C)=CCN1Cc2cc(Cl)cc3[nH]c(=S)n(c23)C[C@@H]1C ; mutations: RT-Y181C ; strain or isolate: IIIB ; cells: CEM ; read by: p24 ; value: 100
Cc1c(O)cccc1C(=O)N[C@@H](CSc1ccccc1)[C@H](O)CN1C[C@H]2CCCC[C@H]2C[C@H]1C(=O)NC(C)(C)C ; mutations: MDR ; strain or isolate: MM ; cells: PBMC ; read by: p24 ; value: >71
Fc1cccc(F)c1C1SCc2nc3ccccc3n21 ; mutations: RT-Y188H ; cells: CEM ; read by: cytopathic effect ; value: 2.99
CCc1cc(NCc2nc3c(Cl)ccc(Cl)c3o2)c(=O)[nH]c1C ; mutations: RT-P236L ; strain or isolate: HXBE30(RT-P236L) ; cells: MT-4 ; read by: antigen ; value: <0.1
Cc1nnc(SCC(=O)Nc2ccc(S(N)(=O)=O)cc2Cl)n1-c1cccc2cccnc12 ; mutations: RT-Y188L ; strain or isolate: NL4-3 ; cells: HeLa + HeLa-JC53 ; read by: luciferase ; value: 600
Cc1cc(Br)cc(S(=O)(=O)c2cccc(N)c2C#N)c1 ; mutations: RT-K103N P225H ; cells: HeLa + HELA CD4+ ; read by: β-galactosidase ; value: 300
CC(C)(C)C(=O)c1sc(C(=O)NCc2ccccc2)c(O)c1O ; mutations: INTG-S153Y ; value: 2
CCc1cc(NCc2nc3c(Cl)ccc(Cl)c3o2)c(=O)[nH]c1C ; mutations: RT-E138K ; strain or isolate: IIIB ; cells: CEM ; read by: syncytia ; value: 43
C/C=C/CSc1cc(NC(=S)c2ccsc2C)ccc1Cl ; mutations: RT-P236L ; strain or isolate: HEPT-resistant (RT P236L) ; cells: CEM + CEM-SS ; read by: cytopathic effect / XTT ; value: 2
CC(C)(C)C(=O)c1sc(C(=O)NCCc2ccccc2)c(O)c1O ; mutations: INTG-V151I ; value: 1
CC(C)(C)NC(=O)[C@@H]1C[C@@H]2CCCC[C@@H]2CN1C[C@@H](O)[C@H](Cc1ccccc1)NC(=O)[C@H](CC(N)=O)NC(=O)c1ccc2ccccc2n1 ; mutations: PR-G48V I54V A71T V82A ; strain or isolate: RF ; cells: MT-2 ; value: 17.6
CCCCN1C(=O)C(CC2CCCCC2)NC(=O)C12CCN(Cc1ccc3c(c1)OCCO3)CC2 ; mutations: MDR ; strain or isolate: JSL ; cells: PBMC ; read by: p24 ; value: 1
CC(=O)Oc1ccc(/C=C/C(=O)O[C@@H](C(=O)O)[C@@H](OC(=O)/C=C/c2ccc(OC(C)=O)c(OC(C)=O)c2)C(=O)O)cc1OC(C)=O ; mutations: AMD3100-resistant ; strain or isolate: NL4-3 ; cells: MT-4 ; read by: cytopathic effect / MTT ; value: >9
Cc1cn([C@H]2C=C[C@@H](CO)O2)c(=O)[nH]c1=O ; mutations: 1(T69G+K103N) ; strain or isolate: RT-T69G K103N ; cells: MT-2 ; read by: p24 ; value: 10
Cc1ccnc2c1NC(=O)c1cccnc1N2C1CC1 ; mutations: RT-Y181C ; strain or isolate: N119 nevirapine-resistant (RT Y181C) ; cells: MT-2 ; read by: cytopathic effect / MTT ; value: >588
Nc1ccn([C@@H]2CS[C@H](CO)O2)c(=O)n1 ; mutations: RT-Q151M ; strain or isolate: RT-Q151M Recombinant ; cells: PBMC ; read by: p24 ; value: 0.01
NS(=O)(=O)c1ccc(NC(=O)CSc2nnc(C(F)(F)F)n2-c2cccc3ccccc23)c(Cl)c1 ; mutations: RT-Y188L ; strain or isolate: NL4-3 ; cells: HeLa + HeLa-JC53 ; read by: luciferase ; value: 98
Cc1cn([C@H]2C=C[C@@H](CO)O2)c(=O)[nH]c1=O ; mutations: MDR ; strain or isolate: TM ; cells: PBMC ; read by: p24 ; value: 3
CC(C)c1nc(CN(C)C(=O)N[C@H](C(=O)N[C@@H](Cc2ccccc2)C[C@H](O)[C@H](Cc2ccccc2)NC(=O)OCc2cncs2)C(C)C)cs1 ; mutations: PR-D30N N88D ; strain or isolate: NL4-3 ; cells: MT-4 ; read by: p24 ; value: 0.2
Cc1cn([C@@H]2O[C@H](CO[Si](C)(C)C(C)(C)C)[C@@]3(OS(=O)(=O)C=C3N)[C@H]2O[Si](C)(C)C(C)(C)C)c(=O)[nH]c1=O ; mutations: RT-Y181C ; strain or isolate: UC82-R (RT-Y181C) ; cells: CEM + CEM-SS ; read by: cytopathic effect / XTT ; value: >200
O=c1[nH]cnc2c1ncn2[C@H]1CC[C@@H](CO)O1 ; mutations: RT-D67N K70R T215F K219Q ; strain or isolate: RTMC (RT D67N K70R T215F K219Q) ; cells: HT4 + HT4 LacZ-1 ; read by: plaque count ; value: 1.86
Cc1ccc(NC(=O)CSc2nnc(C)n2-c2ccccc2Cl)c(Cl)c1 ; mutations: RT-K103N Y181C ; strain or isolate: NL4-3 ; cells: HeLa + HeLa-JC53 ; read by: luciferase ; value: 13
Cc1cn([C@H]2C[C@H](N=[N+]=[N-])[C@@H](CO)O2)c(=O)[nH]c1=O ; mutations: RT-M184V ; strain or isolate: Recombinant ; cells: PBMC ; read by: p24 ; value: 2.5
Cc1csc(NC(=S)N[C@H](C)c2ccccc2)n1 ; mutations: RT-Y181C ; strain or isolate: NNRTI-resistant (RT Y181C) A17 ; cells: PBMC ; read by: p24 ; value: >164
Cc1ccnc2c1NC(=O)c1cccnc1N2C1CC1 ; mutations: RT-Y181C ; strain or isolate: NL4-3 ; cells: CEM + CEM-SS ; read by: cytopathic effect / XTT ; value: 65
Cc1cc(Cl)cc(S(=O)(=O)c2cccc(N)c2C#N)c1 ; mutations: RT-K103N ; cells: HeLa + HELA CD4+ ; read by: β-galactosidase ; value: 108
Cc1ccc(NC(=O)CSc2nnc(C)n2-c2c(C)ccc3ccccc23)c(Cl)c1 ; mutations: RT-Y188L ; strain or isolate: NL4-3 ; cells: HeLa + HeLa-JC53 ; read by: luciferase ; value: 200
CCc1cc(NCc2nc3c(Cl)ccc(Cl)c3o2)c(=O)[nH]c1C ; mutations: RT-P236L ; strain or isolate: DLV-resistant MF (RT-P236L) ; cells: MT-4 ; read by: p24 ; value: 3.91
COc1cc(C(F)(F)F)cc(S(=O)(=O)c2cccc(N)c2C#N)c1 ; mutations: RT-V108I ; cells: HeLa + HELA CD4+ ; read by: β-galactosidase ; value: 2.07
Cn1c2ccccc2c2c1cc(C#N)c(=O)n2-c1ccc([N+](=O)[O-])cc1 ; mutations: RT-K103N L100I ; strain or isolate: NNRTI-resistant ; cells: HeLa ; read by: luciferase ; value: 3.6
Nc1ccn([C@H]2CC[C@@H](CO)O2)c(=O)n1 ; mutations: RT-D67N K70R T215F K219Q ; strain or isolate: RTMC (RT D67N K70R T215F K219Q) ; cells: HT4 + HT4 LacZ-1 ; read by: plaque count ; value: 2.04
Cc1cc(O)cc(S(=O)(=O)c2cccc(N)c2C#N)c1 ; mutations: RT-V108I ; cells: HeLa + HELA CD4+ ; read by: β-galactosidase ; value: 1.9

The first 3 rows once more:

compound,mutations,strain or isolate,cells,read by,value
Cc1cn([C@H]2C[C@H](N=[N+]=[N-])[C@@H](CO)O2)c(=O)[nH]c1=O,RT-K103N Y181C,A17,MT-4,cytopathic effect / MTT,0.4
Nc1nc2c(ncn2[C@H]2CO[C@@H](CO)O2)c(=O)[nH]1,RT-K65R,-,MT-2,-,5.06
Cc1cn([C@H]2C[C@H](N=[N+]=[N-])[C@@H](CO)O2)c(=O)[nH]c1=O,RT-M184V,RT-M184V XM-M184V,PBMC,p24,0.2